Results deposited as PubChem BioAssay AID624099 (ICCB-Longwood, 2012).
This is a random part of about 21,000 deposited reagents. 497 of them (2.4%) were called active. 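Higher z means weaker E2 silencing; only reporter increases were scored, and knock-downs that hurt cell survival may mask genuine repressor factors.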

Test: 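Human genes that papillomavirus E2 requires to repress the HPV18 LCR promoter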 (primary screen)
System: human C33A cervical carcinoma cells (HPV-negative) stably expressing BPV1 E2 and an HPV18 LCR luciferase reporter
Knock-down reagent: siRNA pool against human genes, 40 nM
Duration: 72 h
Detection: 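Per-well luciferase luminescence, z-scored on each plate against the plate mean and SD with control wells left out, then averaged across three replicate plates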
Scale: mean z-score and z-score: higher = stronger reporter signal, weaker E2 silencing
Hit rule: 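Mean z ≥ 2 together with z ≥ 2 in two or more of the three replicates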

gene | mean z-score | z-score, replicate A | z-score, replicate B | z-score, replicate C | Call
NMRK1 | 1.62 | 1.48 | 1.7 | 1.68 | inactive
CUL1 | 0.52 | 0.53 | 0.28 | 0.74 | inactive
SC5D | 0.54 | 0.32 | 0.6 | 0.71 | inactive
LOC400733 (retired record) | -1.31 | -1.1 | -1.13 | -1.69 | inactive
H3C7 | 0.76 | 0.81 | 0.76 | 0.72 | inactive
THAP2 | -0.85 | -0.9 | -0.76 | -0.88 | inactive
KXD1 | -0.06 | -0.35 | 0.09 | 0.07 | inactive
PLA2G1B | 0.21 | 0.23 | 0.13 | 0.25 | inactive
MAGEA9 | -1.43 | -1.45 | -1.24 | -1.59 | inactive
RNASE1 | -0.1 | -0.15 | -0.03 | -0.12 | inactive
SPINK7 | 0.21 | 0.23 | 0.5 | -0.1 | inactive
NSL1 | 0.07 | 0.45 | -0.2 | -0.06 | inactive
TRMT13 | 1.34 | 1.46 | 1.57 | 0.98 | inactive
FAM234A | -1.39 | -1.49 | -1.36 | -1.33 | inactive
CLEC4F | -0.59 | -0.54 | -0.5 | -0.74 | inactive
LYPD4 | 0.82 | 0.66 | 0.99 | 0.8 | inactive
SLC25A37 | 0.08 | 0.27 | -0.09 | 0.05 | inactive
SLC50A1 | -0.98 | -0.92 | -1.04 | -0.98 | inactive
ADAM2 | -0.67 | -0.5 | -0.78 | -0.73 | inactive
CDC40 | 2.98 | 3.22 | 2.95 | 2.77 | active
BTG4 | 1.18 | 1.33 | 0.91 | 1.31 | inactive
LOC388897 (retired record) | 0.91 | 1.21 | 0.26 | 1.24 | inactive
PPME1 | 2.03 | 1.83 | 1.83 | 2.42 | inactive
ZNF462 | -0.06 | 0.27 | -0.22 | -0.22 | inactive
NDUFB5 | -0.84 | -0.83 | -0.56 | -1.12 | inactive
IL13 | -1.75 | -1.54 | -2.09 | -1.62 | inactive
ATOX1 | 0.54 | 0.52 | 0.31 | 0.78 | inactive
CMTR1 | -0.3 | -0.44 | -0.06 | -0.4 | inactive
CCL19 | 1.17 | 1.25 | 1.18 | 1.07 | inactive
TBX20 | 1.51 | 1.49 | 1.66 | 1.37 | inactive
NDUFS1 | 1.32 | 1.15 | 1.59 | 1.23 | inactive
ATG12 | 3.15 | 3.09 | 3.12 | 3.24 | active
RPS14 | -1.18 | -1.34 | -1.24 | -0.96 | inactive
EFHB | 0.53 | 0.5 | 0.84 | 0.24 | inactive

An excerpt from above, limited to “z-score, replicate A”:
BTG4: 1.33
LOC388897 (retired record): 1.21
PPME1: 1.83
ZNF462: 0.27
NDUFB5: -0.83
IL13: -1.54
ATOX1: 0.52
CMTR1: -0.44
CCL19: 1.25
TBX20: 1.49

The results go on:
gene | mean z-score | z-score, replicate A | z-score, replicate B | z-score, replicate C | Call
NTN5 | 0.39 | 0.7 | 0.3 | 0.15 | inactive
OR6C6 | -1.7 | -2.1 | -1.11 | -1.88 | inactive
GPR108 | 1.51 | 1.5 | 1.71 | 1.31 | inactive
RNF11 | -0.33 | -0.85 | -0.18 | 0.02 | inactive
PLK3 | 0.07 | 0.22 | 0.08 | -0.07 | inactive
SEPSECS | -0.17 | -0.45 | 0.13 | -0.18 | inactive
UBE2G1 | 0.44 | 0.53 | 0 | 0.78 | inactive
OR10X1 | 0.42 | 0.84 | 0.14 | 0.29 | inactive
SSNA1 | -0.36 | -0.38 | -0.27 | -0.42 | inactive
EGR1 | -0.76 | -0.63 | -1.03 | -0.61 | inactive
USP27X | -0.12 | 0.05 | -0.2 | -0.22 | inactive
PCMTD2 | -0.37 | -0.8 | -0.51 | 0.19 | inactive
LOC400622 | 0.94 | 0.83 | 1.17 | 0.82 | inactive
NKAPP1 | -1.85 | -1.23 | -2.21 | -2.13 | inactive
DIPK1B | -1.07 | -1.22 | -0.62 | -1.37 | inactive
DOK5 | -0.96 | -1.05 | -0.93 | -0.91 | inactive
PRPH | 1.53 | 1.57 | 1.56 | 1.46 | inactive
LOC388129 (retired record) | 0.01 | 0.19 | -0.01 | -0.15 | inactive
SLCO1B3 | 0.36 | 0.44 | 0.13 | 0.51 | inactive
CCDC50 | 0.44 | -0.02 | 0.76 | 0.56 | inactive
HMGN2P46 | -1.89 | -1.54 | -2.29 | -1.85 | inactive
COL1A2 | -0.72 | -0.82 | -0.78 | -0.54 | inactive
RHPN1 | -0.29 | -0.1 | -0.34 | -0.42 | inactive
TAL1 | -1.17 | -1.13 | -1.35 | -1.03 | inactive
REL | 0.35 | 0.45 | 0.39 | 0.21 | inactive
DUSP11 | -0.96 | -0.79 | -1.31 | -0.79 | inactive
ABCA7 | -0.49 | -0.29 | -0.81 | -0.37 | inactive
LIG4 | -0.46 | -0.54 | -0.22 | -0.64 | inactive
KCNJ2 | -0.65 | -0.57 | -0.8 | -0.59 | inactive
PAX8 | -0.16 | -0.22 | 0.01 | -0.27 | inactive
CES4A | 0.15 | 0.13 | 0.18 | 0.15 | inactive
PRMT7 | 1.18 | 0.86 | 1.04 | 1.65 | inactive
LINC01587 | -0.39 | -0.49 | -0.31 | -0.36 | inactive
GRTP1 | -0.29 | -0.18 | -0.09 | -0.59 | inactive
CARD19 | 0.99 | 1.01 | 0.81 | 1.15 | inactive
CRYBG2 | -0.04 | -0.16 | -0.05 | 0.09 | inactive
ANKRD20A1 | -1.71 | -1.52 | -1.85 | -1.75 | inactive
FAM169A | 0.41 | 0.62 | 0.25 | 0.36 | inactive
CERCAM | 0.77 | 0.8 | 0.74 | 0.79 | inactive
